Data taken from paper PMC12678819, “Targeting bacterial kinases as a strategy to counteract antibiotic resistance” (2025).

Amino acid sequences for entries named in this document (tags omitted). Residues count along the entry.
UniProt O68183, 1-301: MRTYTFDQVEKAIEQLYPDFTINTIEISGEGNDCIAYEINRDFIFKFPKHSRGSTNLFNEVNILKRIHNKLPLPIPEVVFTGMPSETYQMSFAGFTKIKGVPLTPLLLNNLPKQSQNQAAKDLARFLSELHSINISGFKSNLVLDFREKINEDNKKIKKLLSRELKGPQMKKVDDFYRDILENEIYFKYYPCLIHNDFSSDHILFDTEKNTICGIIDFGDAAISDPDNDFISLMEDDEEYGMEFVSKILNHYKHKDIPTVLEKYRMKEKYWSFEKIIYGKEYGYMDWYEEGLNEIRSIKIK

Columns and labels:
APH(2”)-IVa = APH(2”)-IVa (Enterococcus casseliflavus, UniProt O68183); assay: Thermal shift assay; conditions: 500 µM compound
[1] = test system: Pseudomonas aeruginosa C0214; assay: Bacterial growth / checkerboard assay with kanamycin A; conditions: panel C

Q: For `Cc1cc(-c2c(Cl)cnc3[nH]ccc23)[nH]n1`, which “ΔTm (°C) at 500 µM” value (APH(2”)-IVa) is on record?
A: 2.27 °C

Q: What about the growth curve reading ([1]; Kanamycin A 0 µg·mL-1, [10] 125 µM, 8 h) of the same compound?
A: 0.2684

Q: What about the growth curve reading ([1]; Kanamycin A 0 µg·mL-1, [10] 125 µM, 9 h) of the same compound?
A: 0.2792

Q: And the growth curve reading ([1]; Kanamycin A 0 µg·mL-1, [10] 125 µM, 10 h)?
A: 0.2903

Q: And the growth curve reading ([1]; Kanamycin A 0 µg·mL-1, [10] 125 µM, 11 h)?
A: 0.2996

Q: What about the growth curve reading ([1]; Kanamycin A 0 µg·mL-1, [10] 125 µM, 12 h) of the same compound?
A: 0.3025

Q: And the growth curve reading ([1]; Kanamycin A 0 µg·mL-1, [10] 125 µM, 13 h)?
A: 0.3085

Q: What about the growth curve reading ([1]; Kanamycin A 0 µg·mL-1, [10] 125 µM, 14 h) of the same compound?
A: 0.3168

Q: And the growth curve reading ([1]; Kanamycin A 0 µg·mL-1, [10] 125 µM, 15 h)?
A: 0.3231

Q: And the growth curve reading ([1]; Kanamycin A 0 µg·mL-1, [10] 125 µM, 16 h)?
A: 0.3257

Q: What about the growth curve reading ([1]; Kanamycin A 0 µg·mL-1, [10] 125 µM, 17 h) of the same compound?
A: 0.3208

Q: What about the growth curve reading ([1]; Kanamycin A 0 µg·mL-1, [10] 125 µM, 18 h) of the same compound?
A: 0.3174

Q: And the growth curve reading ([1]; Kanamycin A 0 µg·mL-1, [10] 125 µM, 19 h)?
A: 0.3133

Q: And the growth curve reading ([1]; Kanamycin A 0 µg·mL-1, [10] 125 µM, 20 h)?
A: 0.3105

Q: And the growth curve reading ([1]; Kanamycin A 0 µg·mL-1, [10] 125 µM, 21 h)?
A: 0.3041

Q: And the growth curve reading ([1]; Kanamycin A 0 µg·mL-1, [10] 125 µM, 22 h)?
A: 0.2995

Q: And the growth curve reading ([1]; Kanamycin A 0 µg·mL-1, [10] 125 µM, 23 h)?
A: 0.2966

Q: And the growth curve reading ([1]; Kanamycin A 0 µg·mL-1, [10] 125 µM, 24 h)?
A: 0.2930

Q: What about the growth curve reading ([1]; Kanamycin A 0 µg·mL-1, [10] 250 µM, 8 h) of the same compound?
A: 0.2802

Q: And the growth curve reading ([1]; Kanamycin A 0 µg·mL-1, [10] 250 µM, 9 h)?
A: 0.2949

Q: What about the growth curve reading ([1]; Kanamycin A 0 µg·mL-1, [10] 250 µM, 10 h) of the same compound?
A: 0.3074

Q: What about the growth curve reading ([1]; Kanamycin A 0 µg·mL-1, [10] 250 µM, 11 h) of the same compound?
A: 0.3034

Q: And the growth curve reading ([1]; Kanamycin A 0 µg·mL-1, [10] 250 µM, 12 h)?
A: 0.3117

Q: What about the growth curve reading ([1]; Kanamycin A 0 µg·mL-1, [10] 250 µM, 13 h) of the same compound?
A: 0.3163

Q: And the growth curve reading ([1]; Kanamycin A 0 µg·mL-1, [10] 250 µM, 14 h)?
A: 0.3216

Q: And the growth curve reading ([1]; Kanamycin A 0 µg·mL-1, [10] 250 µM, 15 h)?
A: 0.3278

Q: And the growth curve reading ([1]; Kanamycin A 0 µg·mL-1, [10] 250 µM, 16 h)?
A: 0.3246

Q: And the growth curve reading ([1]; Kanamycin A 0 µg·mL-1, [10] 250 µM, 17 h)?
A: 0.3269

Q: What about the growth curve reading ([1]; Kanamycin A 0 µg·mL-1, [10] 250 µM, 18 h) of the same compound?
A: 0.3250

Q: What about the growth curve reading ([1]; Kanamycin A 0 µg·mL-1, [10] 250 µM, 19 h) of the same compound?
A: 0.3257

Q: What about the growth curve reading ([1]; Kanamycin A 0 µg·mL-1, [10] 250 µM, 20 h) of the same compound?
A: 0.3212

Q: What about the growth curve reading ([1]; Kanamycin A 0 µg·mL-1, [10] 250 µM, 21 h) of the same compound?
A: 0.3186

Q: What about the growth curve reading ([1]; Kanamycin A 0 µg·mL-1, [10] 250 µM, 22 h) of the same compound?
A: 0.3158

Q: What about the growth curve reading ([1]; Kanamycin A 0 µg·mL-1, [10] 250 µM, 23 h) of the same compound?
A: 0.3109

Q: And the growth curve reading ([1]; Kanamycin A 0 µg·mL-1, [10] 250 µM, 24 h)?
A: 0.3077

Q: And the growth curve reading ([1]; Kanamycin A 0 µg·mL-1, [10] 500 µM, 8 h)?
A: 0.2732

Q: And the growth curve reading ([1]; Kanamycin A 0 µg·mL-1, [10] 500 µM, 9 h)?
A: 0.2819

Q: What about the growth curve reading ([1]; Kanamycin A 0 µg·mL-1, [10] 500 µM, 10 h) of the same compound?
A: 0.2846

Q: And the growth curve reading ([1]; Kanamycin A 0 µg·mL-1, [10] 500 µM, 11 h)?
A: 0.2894

Q: And the growth curve reading ([1]; Kanamycin A 0 µg·mL-1, [10] 500 µM, 12 h)?
A: 0.2927

Q: What about the growth curve reading ([1]; Kanamycin A 0 µg·mL-1, [10] 500 µM, 13 h) of the same compound?
A: 0.3029

Q: What about the growth curve reading ([1]; Kanamycin A 0 µg·mL-1, [10] 500 µM, 14 h) of the same compound?
A: 0.3106

Q: And the growth curve reading ([1]; Kanamycin A 0 µg·mL-1, [10] 500 µM, 15 h)?
A: 0.3172

Q: And the growth curve reading ([1]; Kanamycin A 0 µg·mL-1, [10] 500 µM, 16 h)?
A: 0.3235

Q: What about the growth curve reading ([1]; Kanamycin A 0 µg·mL-1, [10] 500 µM, 17 h) of the same compound?
A: 0.3285

Q: And the growth curve reading ([1]; Kanamycin A 0 µg·mL-1, [10] 500 µM, 18 h)?
A: 0.3275

Q: What about the growth curve reading ([1]; Kanamycin A 0 µg·mL-1, [10] 500 µM, 19 h) of the same compound?
A: 0.3273

Q: What about the growth curve reading ([1]; Kanamycin A 0 µg·mL-1, [10] 500 µM, 20 h) of the same compound?
A: 0.3236

Q: And the growth curve reading ([1]; Kanamycin A 0 µg·mL-1, [10] 500 µM, 21 h)?
A: 0.3156

Q: What about the growth curve reading ([1]; Kanamycin A 0 µg·mL-1, [10] 500 µM, 22 h) of the same compound?
A: 0.3081

Q: What about the growth curve reading ([1]; Kanamycin A 0 µg·mL-1, [10] 500 µM, 23 h) of the same compound?
A: 0.3018

Q: What about the growth curve reading ([1]; Kanamycin A 0 µg·mL-1, [10] 500 µM, 24 h) of the same compound?
A: 0.2959

Q: What about the growth curve reading ([1]; Kanamycin A 8 µg·mL-1, [10] 125 µM, 8 h) of the same compound?
A: 0.2269

Q: What about the growth curve reading ([1]; Kanamycin A 8 µg·mL-1, [10] 125 µM, 9 h) of the same compound?
A: 0.2406

Q: And the growth curve reading ([1]; Kanamycin A 8 µg·mL-1, [10] 125 µM, 10 h)?
A: 0.2611

Q: What about the growth curve reading ([1]; Kanamycin A 8 µg·mL-1, [10] 125 µM, 11 h) of the same compound?
A: 0.2689

Q: What about the growth curve reading ([1]; Kanamycin A 8 µg·mL-1, [10] 125 µM, 12 h) of the same compound?
A: 0.2747

Q: And the growth curve reading ([1]; Kanamycin A 8 µg·mL-1, [10] 125 µM, 13 h)?
A: 0.2827

Q: And the growth curve reading ([1]; Kanamycin A 8 µg·mL-1, [10] 125 µM, 14 h)?
A: 0.2820

Q: And the growth curve reading ([1]; Kanamycin A 8 µg·mL-1, [10] 125 µM, 15 h)?
A: 0.2860

Q: And the growth curve reading ([1]; Kanamycin A 8 µg·mL-1, [10] 125 µM, 16 h)?
A: 0.2854

Q: What about the growth curve reading ([1]; Kanamycin A 8 µg·mL-1, [10] 125 µM, 17 h) of the same compound?
A: 0.2807

Q: And the growth curve reading ([1]; Kanamycin A 8 µg·mL-1, [10] 125 µM, 18 h)?
A: 0.2846

Q: What about the growth curve reading ([1]; Kanamycin A 8 µg·mL-1, [10] 125 µM, 19 h) of the same compound?
A: 0.2869

Q: And the growth curve reading ([1]; Kanamycin A 8 µg·mL-1, [10] 125 µM, 20 h)?
A: 0.2848

Q: And the growth curve reading ([1]; Kanamycin A 8 µg·mL-1, [10] 125 µM, 21 h)?
A: 0.2827

Q: What about the growth curve reading ([1]; Kanamycin A 8 µg·mL-1, [10] 125 µM, 22 h) of the same compound?
A: 0.2836

Q: What about the growth curve reading ([1]; Kanamycin A 8 µg·mL-1, [10] 125 µM, 23 h) of the same compound?
A: 0.2856

Q: What about the growth curve reading ([1]; Kanamycin A 8 µg·mL-1, [10] 125 µM, 24 h) of the same compound?
A: 0.2906

Q: And the growth curve reading ([1]; Kanamycin A 8 µg·mL-1, [10] 250 µM, 8 h)?
A: 0.2386

Q: And the growth curve reading ([1]; Kanamycin A 8 µg·mL-1, [10] 250 µM, 9 h)?
A: 0.2587

Q: And the growth curve reading ([1]; Kanamycin A 8 µg·mL-1, [10] 250 µM, 10 h)?
A: 0.2713

Q: What about the growth curve reading ([1]; Kanamycin A 8 µg·mL-1, [10] 250 µM, 11 h) of the same compound?
A: 0.2824

Q: And the growth curve reading ([1]; Kanamycin A 8 µg·mL-1, [10] 250 µM, 12 h)?
A: 0.2887

Q: And the growth curve reading ([1]; Kanamycin A 8 µg·mL-1, [10] 250 µM, 13 h)?
A: 0.2895

Q: What about the growth curve reading ([1]; Kanamycin A 8 µg·mL-1, [10] 250 µM, 14 h) of the same compound?
A: 0.2909

Q: What about the growth curve reading ([1]; Kanamycin A 8 µg·mL-1, [10] 250 µM, 15 h) of the same compound?
A: 0.2885

Q: And the growth curve reading ([1]; Kanamycin A 8 µg·mL-1, [10] 250 µM, 16 h)?
A: 0.2886

Q: And the growth curve reading ([1]; Kanamycin A 8 µg·mL-1, [10] 250 µM, 17 h)?
A: 0.2882

Q: What about the growth curve reading ([1]; Kanamycin A 8 µg·mL-1, [10] 250 µM, 18 h) of the same compound?
A: 0.2883

Q: What about the growth curve reading ([1]; Kanamycin A 8 µg·mL-1, [10] 250 µM, 19 h) of the same compound?
A: 0.2910

Q: What about the growth curve reading ([1]; Kanamycin A 8 µg·mL-1, [10] 250 µM, 20 h) of the same compound?
A: 0.2912

Q: What about the growth curve reading ([1]; Kanamycin A 8 µg·mL-1, [10] 250 µM, 21 h) of the same compound?
A: 0.2907

Q: And the growth curve reading ([1]; Kanamycin A 8 µg·mL-1, [10] 250 µM, 22 h)?
A: 0.2906

Q: What about the growth curve reading ([1]; Kanamycin A 8 µg·mL-1, [10] 250 µM, 23 h) of the same compound?
A: 0.2942

Q: What about the growth curve reading ([1]; Kanamycin A 8 µg·mL-1, [10] 250 µM, 24 h) of the same compound?
A: 0.2964

Q: What about the growth curve reading ([1]; Kanamycin A 8 µg·mL-1, [10] 500 µM, 8 h) of the same compound?
A: 0.2276

Q: And the growth curve reading ([1]; Kanamycin A 8 µg·mL-1, [10] 500 µM, 9 h)?
A: 0.2491

Q: And the growth curve reading ([1]; Kanamycin A 8 µg·mL-1, [10] 500 µM, 10 h)?
A: 0.2720

Q: And the growth curve reading ([1]; Kanamycin A 8 µg·mL-1, [10] 500 µM, 11 h)?
A: 0.2895

Q: And the growth curve reading ([1]; Kanamycin A 8 µg·mL-1, [10] 500 µM, 12 h)?
A: 0.2989

Q: And the growth curve reading ([1]; Kanamycin A 8 µg·mL-1, [10] 500 µM, 13 h)?
A: 0.3019

Q: What about the growth curve reading ([1]; Kanamycin A 8 µg·mL-1, [10] 500 µM, 14 h) of the same compound?
A: 0.3013

Q: And the growth curve reading ([1]; Kanamycin A 8 µg·mL-1, [10] 500 µM, 15 h)?
A: 0.2986

Q: What about the growth curve reading ([1]; Kanamycin A 8 µg·mL-1, [10] 500 µM, 16 h) of the same compound?
A: 0.2975

Q: What about the growth curve reading ([1]; Kanamycin A 8 µg·mL-1, [10] 500 µM, 17 h) of the same compound?
A: 0.2960

Q: What about the growth curve reading ([1]; Kanamycin A 8 µg·mL-1, [10] 500 µM, 18 h) of the same compound?
A: 0.2947

Q: What about the growth curve reading ([1]; Kanamycin A 8 µg·mL-1, [10] 500 µM, 19 h) of the same compound?
A: 0.2901

Q: What about the growth curve reading ([1]; Kanamycin A 8 µg·mL-1, [10] 500 µM, 20 h) of the same compound?
A: 0.2881

Q: And the growth curve reading ([1]; Kanamycin A 8 µg·mL-1, [10] 500 µM, 21 h)?
A: 0.2873

Q: And the growth curve reading ([1]; Kanamycin A 8 µg·mL-1, [10] 500 µM, 22 h)?
A: 0.2838

Q: What about the growth curve reading ([1]; Kanamycin A 8 µg·mL-1, [10] 500 µM, 23 h) of the same compound?
A: 0.2819

Q: And the growth curve reading ([1]; Kanamycin A 8 µg·mL-1, [10] 500 µM, 24 h)?
A: 0.2788

Q: And the growth curve reading ([1]; Kanamycin A 16 µg·mL-1, [10] 125 µM, 8 h)?
A: 0.1586
